{"source": "PubChem BioAssay AID624099 (ICCB-Longwood, 2012)", "screen": "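Knock-downs relieving repression by E2 of an HPV18 LCR luciferase reporter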 (primary screen)", "cells": "human C33A cervical carcinoma cells (HPV-negative) stably expressing BPV1 E2 and an HPV18 LCR luciferase reporter", "reagents": "siRNA pool against human genes, 40 nM", "duration": "72 h", "detection": "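HPV18 LCR reporter light per well, converted to plate-wise z-scores that exclude control wells, and averaged over triplicate plates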", "direction": "mean z-score and z-score: higher = stronger reporter signal, weaker E2 silencing", "call rule": "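Mean z ≥ 2 together with z ≥ 2 in two or more of the three replicates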", "note": "The whole screen tested about 21,000 reagents; below is an unselected part. In the full data, 497 (2.4%) got an active call. 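Higher z means weaker E2 silencing; only reporter increases were scored, and knock-downs that hurt cell survival may mask genuine repressor factors.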"}
{"gene": "SF3A3", "PubChem SID": "SID134323571", "mean z-score": -0.76, "z-score, replicate A": -0.59, "z-score, replicate B": -0.63, "z-score, replicate C": -1.06, "activity call": "inactive"}
{"gene": "CRHR1", "PubChem SID": "SID134309989", "mean z-score": -0.96, "z-score, replicate A": -1.09, "z-score, replicate B": -0.87, "z-score, replicate C": -0.91, "activity call": "inactive"}
{"gene": "FAM174B", "PubChem SID": "SID134329602", "mean z-score": 0.4, "z-score, replicate A": 0.44, "z-score, replicate B": 0.25, "z-score, replicate C": 0.52, "activity call": "inactive"}
{"gene": "LINC00319", "PubChem SID": "SID134323098", "mean z-score": -0.51, "z-score, replicate A": -0.72, "z-score, replicate B": -0.53, "z-score, replicate C": -0.27, "activity call": "inactive"}
{"gene": "LOC400163 (retired record)", "PubChem SID": "SID134328464", "mean z-score": -0.82, "z-score, replicate A": -1.01, "z-score, replicate B": -0.62, "z-score, replicate C": -0.84, "activity call": "inactive"}
{"gene": "MEFV", "PubChem SID": "SID134315442", "mean z-score": 0.1, "z-score, replicate A": 0.31, "z-score, replicate B": -0.14, "z-score, replicate C": 0.12, "activity call": "inactive"}
{"gene": "ACTA1", "PubChem SID": "SID134315551", "mean z-score": 0.14, "z-score, replicate A": -0.04, "z-score, replicate B": 0.02, "z-score, replicate C": 0.43, "activity call": "inactive"}
{"gene": "PSG2", "PubChem SID": "SID134318804", "mean z-score": 1.01, "z-score, replicate A": 0.96, "z-score, replicate B": 1.04, "z-score, replicate C": 1.04, "activity call": "inactive"}
{"gene": "MBD5", "PubChem SID": "SID134326789", "mean z-score": 0.49, "z-score, replicate A": 0.92, "z-score, replicate B": 0.25, "z-score, replicate C": 0.31, "activity call": "inactive"}
{"gene": "IARS2", "PubChem SID": "SID134324110", "mean z-score": 0.76, "z-score, replicate A": 0.72, "z-score, replicate B": 0.97, "z-score, replicate C": 0.58, "activity call": "inactive"}
{"gene": "ABCD4", "PubChem SID": "SID134314631", "mean z-score": 1.54, "z-score, replicate A": 1.52, "z-score, replicate B": 1.72, "z-score, replicate C": 1.38, "activity call": "inactive"}
{"gene": "GCAT", "PubChem SID": "SID134314279", "mean z-score": -1.3, "z-score, replicate A": -1.25, "z-score, replicate B": -1.23, "z-score, replicate C": -1.43, "activity call": "inactive"}

As entered above:
Entry for SF3A3 [SID134323571] in “activity call”: inactive
PSG2 [SID134318804], activity call: inactive

The results go on.
{"gene": "ARRDC2", "PubChem SID": "SID134318073", "mean z-score": 0.68, "z-score, replicate A": 0.67, "z-score, replicate B": 0.82, "z-score, replicate C": 0.56, "activity call": "inactive"}
{"gene": "GREM1", "PubChem SID": "SID134325066", "mean z-score": 0.39, "z-score, replicate A": 0.35, "z-score, replicate B": 0.57, "z-score, replicate C": 0.25, "activity call": "inactive"}
{"gene": "NDUFAF2P1", "PubChem SID": "SID134327127", "mean z-score": -0.73, "z-score, replicate A": -0.84, "z-score, replicate B": -0.88, "z-score, replicate C": -0.47, "activity call": "inactive"}
{"gene": "LIPI", "PubChem SID": "SID134326865", "mean z-score": 0.42, "z-score, replicate A": 0.7, "z-score, replicate B": 0.28, "z-score, replicate C": 0.28, "activity call": "inactive"}
{"gene": "SEC14L5", "PubChem SID": "SID134325460", "mean z-score": -0.96, "z-score, replicate A": -0.88, "z-score, replicate B": -1.16, "z-score, replicate C": -0.84, "activity call": "inactive"}
{"gene": "ING5", "PubChem SID": "SID134312211", "mean z-score": -0.06, "z-score, replicate A": 0.06, "z-score, replicate B": -0.05, "z-score, replicate C": -0.17, "activity call": "inactive"}
{"gene": "ING5", "PubChem SID": "SID134327289", "mean z-score": -0.2, "z-score, replicate A": 0.32, "z-score, replicate B": -0.76, "z-score, replicate C": -0.18, "activity call": "inactive"}
{"gene": "PDE4C", "PubChem SID": "SID134312693", "mean z-score": -0.2, "z-score, replicate A": -0.63, "z-score, replicate B": -0.48, "z-score, replicate C": 0.53, "activity call": "inactive"}
{"gene": "ZCRB1", "PubChem SID": "SID134320680", "mean z-score": 0.14, "z-score, replicate A": 0.03, "z-score, replicate B": 0.14, "z-score, replicate C": 0.27, "activity call": "inactive"}
{"gene": "ALPL", "PubChem SID": "SID134313517", "mean z-score": 0.1, "z-score, replicate A": 0.23, "z-score, replicate B": 0.06, "z-score, replicate C": 0, "activity call": "inactive"}
{"gene": "SLC46A3", "PubChem SID": "SID134322445", "mean z-score": -0.5, "z-score, replicate A": -0.43, "z-score, replicate B": -0.52, "z-score, replicate C": -0.56, "activity call": "inactive"}
{"gene": "LOC387854 (retired record)", "PubChem SID": "SID134328354", "mean z-score": -0.14, "z-score, replicate A": -0.38, "z-score, replicate B": 0.11, "z-score, replicate C": -0.13, "activity call": "inactive"}
{"gene": "SETD4", "PubChem SID": "SID134312122", "mean z-score": -0.29, "z-score, replicate A": -0.3, "z-score, replicate B": -0.21, "z-score, replicate C": -0.36, "activity call": "inactive"}
{"gene": "KYNUP1", "PubChem SID": "SID134328777", "mean z-score": -0.21, "z-score, replicate A": -0.18, "z-score, replicate B": -0.2, "z-score, replicate C": -0.23, "activity call": "inactive"}
{"gene": "NDFIP2", "PubChem SID": "SID134325162", "mean z-score": -1.59, "z-score, replicate A": -1.54, "z-score, replicate B": -1.62, "z-score, replicate C": -1.62, "activity call": "inactive"}
